The target in assay [1] is Hemagglutinin of H1N1 A/California/07/2009 virus (Influenza A virus A/California/07/2009 …). Description: cell-based or functional assay.
Assay [2] concerns the target Hemagglutinin of H5N1 A/Vietnam/1203/2004 virus (Influenza A virus A/Vietnam/1203/2004 …). Description: cell-based or functional assay.

B1: H1H11829N2 (antibody, V domains shown)
VH: QVHLVQSGPEVKKPGSSVKVSCKASGVTFISHAISWVRQAPGQGLEWVGGIIAIFGTTNYAQKFQGRVTVTTDKSTNTVYMELSRLRSEDTAIYYCARGETYYEGNFDFWGQGTLVTVSS
VL: not shown
For B1, the “IC90 (nM), hemagglutination titer after microneutralization assay, Trial 1” value in assay [1] was found to be 41.7 nM; in assay [2], 83.3 nM.

(Values after US20160176953A1 (Regeneron, published 2016).)
